In PubChem BioAssay AID588499 (NMMLSC, 2011) one finds inhibition data, which are given here for 23 compounds.

Only a part is listed here, and it is no random draw. Active and inactive are the calls of the source. No stated cut-off is given here; in the data, active means inhibition above about 30%; inconclusive means no clear call, values can overlap the other calls; inactive means below that.

The test system of this test is Botulinum neurotoxin type A light chain protease (Clostridium botulinum A str. ATCC 3502). As to the kind of experiment: blockers of BoNT/A LC substrate cleavage – biochemical, flow cytometry, MLPCN library, primary screen (AID 588499). Further: plate controls were buffer without enzyme for full effect and enzyme alone for no effect. The note with it: multiplex microsphere protease substrate cleavage, at 10 µM, stronger effect = higher value. (In general: Flow cytometry measures light scatter and fluorescence of single cells or particles in a stream.)
Regarding `CP(=O)(Nc1ccc(SC(F)(F)F)cc1)Oc1ccc(F)cc1` (stereo not drawn), the inhibition was inactive: 0.3%.

On to `CCOP(C)(=S)SCC(=O)NC(C)(CC)C(=O)O` (stereo not drawn), for which the inhibition was inactive: 0.1%.

Regarding `CP(=O)(Nc1ccc2c(c1)OCCO2)Oc1ccccc1` (stereo not drawn), the inhibition is inactive: -0.7%.

For the compound `O=[N+]([O-])c1cc([N+](=O)[O-])c(C(F)(F)F)c([N+](=O)[O-])c1O`, the inhibition was inactive: -0.7%.

For `Cc1ccccc1NP(C)(=O)Nc1ccccc1C`, the inhibition was inactive: 0.8%.

With `COc1ccc(OP(C)(=O)Nc2cccc(Br)c2)cc1` (stereo not drawn), the inhibition was inactive: -2.2%.

On to `COc1ccc(NP(C)(=O)Oc2ccccc2OC)cc1` (stereo not drawn), for which the inhibition was inactive: -0.9%.

Consider `CN(C)CCOC(=O)C(O)(c1ccccc1)C1CCCCC1` (stereo not drawn), for which the inhibition was inactive: -0.1%.

Take `Cc1cc(-c2cccc3ccccc23)c(C)cn1.O=[N+]([O-])c1cc([N+](=O)[O-])c(O)c([N+](=O)[O-])c1`: the inhibition was inactive: -0.7%.

`O=[N+]([O-])c1cc([N+](=O)[O-])c(NCC2CCS(=O)(=O)C2)c([N+](=O)[O-])c1` (stereo not drawn): the inhibition is inactive: 1.7%.

`O=[N+]([O-])c1ccc(OP2(=O)COCCO2)cc1` (stereo not drawn): the inhibition is inactive: 0.5%.

`Cc1c(C(c2ccc3c(c2)OCO3)c2c(C)n(C)n(-c3ccccc3)c2=O)c(=O)n(-c2ccccc2)n1C.O=[N+]([O-])c1cc([N+](=O)[O-])c(O)c([N+](=O)[O-])c1`: the inhibition is inactive: -1.4%.

Consider `CCN(CC)CCCNc1ccccc1[N+](=O)[O-].O=[N+]([O-])c1cc([N+](=O)[O-])c(O)c([N+](=O)[O-])c1`, for which the inhibition is inactive: 0.4%.

For the compound `COc1ccc(OP(C)(=O)Nc2ccc(SC(F)(F)F)cc2)cc1` (stereo not drawn), the inhibition is inactive: -0.6%.

Turning to `CCOC(=O)c1ccc(NP(C)(=O)Oc2ccc(F)cc2)cc1` (stereo not drawn), the inhibition was inactive: -0.1%.

Turning to `CCN(CC)CCCOC(=O)C(O)(c1ccccc1)C1CCCCC1` (stereo not drawn), the inhibition is inactive: 0.9%.

For the compound `Cc1c([N+](=O)[O-])cc([N+](=O)[O-])c(Br)c1[N+](=O)[O-]`, the inhibition is inactive: 0.1%.

In the case of `O=[N+]([O-])c1cc([N+](=O)[O-])c(OC2CCCCC2O)c([N+](=O)[O-])c1` (stereo not drawn), the inhibition was inactive: -3.1%.

In the case of `CCCCCOc1ccc(NP(C)(=O)Oc2ccc(Cl)cc2Cl)cc1` (stereo not drawn), the inhibition was inactive: 0%.

For `CP(=O)(Nc1ccccc1)Oc1ccc(F)cc1` (stereo not drawn), the inhibition is inactive: -1.2%.

Consider `O=[N+]([O-])c1cc([N+](=O)[O-])c(Nc2ccc(Cl)cc2)c([N+](=O)[O-])c1`, for which the inhibition was inactive: -0.5%.

Regarding `CC(C)c1ccc(OP(C)(=O)Nc2ccc(SC(F)(F)F)cc2)cc1` (stereo not drawn), the inhibition was inactive: 0.2%.

For the compound `CP(=O)(Nc1ccccc1F)Oc1ccccc1` (stereo not drawn), the inhibition was inactive: 0.5%.

The term inhibition denotes the change of the read-out against control, counted positive when it falls.
